Values from PubChem BioAssay AID624099 (ICCB-Longwood, 2012)

Test: 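Host factors E2 relies on to silence an HPV18 LCR reporter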 (primary screen)
System: human C33A cervical carcinoma cells (HPV-negative) stably expressing BPV1 E2 and an HPV18 LCR luciferase reporter
Reagent: siRNA pool against human genes, 40 nM
Time to read-out: 72 h
Measurement: 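Per-well luciferase luminescence, z-scored on each plate against the plate mean and SD with control wells left out, then averaged across three replicate plates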
Reading the numbers: mean z-score and z-score: higher = stronger reporter signal, weaker E2 silencing
Call rule: 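Hit if mean z-score reaches 2 and two or more of three replicate z-scores also reach 2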
The whole screen tested about 21,000 reagents; shown is an unselected part. Over the whole deposit, 497 (2.4%) are marked active. 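Higher z means weaker E2 silencing; only reporter increases were scored, and knock-downs that hurt cell survival may mask genuine repressor factors.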 Unmarked entries are inactive.

With PF4V1, what was measured?
mean z-score: 1.64; z-score, replicate A: 1.53; z-score, replicate B: 1.78; z-score, replicate C: 1.62

How did the screen score ROBO2?
mean z-score: 0.19; z-score, replicate A: 0.36; z-score, replicate B: 0.09; z-score, replicate C: 0.13

With STARD4, how do the results read?
mean z-score: 0.26; z-score, replicate A: 0.21; z-score, replicate B: 0.33; z-score, replicate C: 0.24

For SPAAR, what was measured?
mean z-score: 1.15; z-score, replicate A: 1.7; z-score, replicate B: 0.76; z-score, replicate C: 1

With LOC401222 (retired record), how do the results read?
mean z-score: 0.17; z-score, replicate A: 0.1; z-score, replicate B: 0.32; z-score, replicate C: 0.09

What did the screen give for PPP1CC?
mean z-score: -0.35; z-score, replicate A: -0.42; z-score, replicate B: -0.37; z-score, replicate C: -0.25

Which result is listed for ZDHHC11?
mean z-score: -0.18; z-score, replicate A: 0.07; z-score, replicate B: -0.48; z-score, replicate C: -0.14

What is on record for COG8?
mean z-score: -0.01; z-score, replicate A: -0.02; z-score, replicate B: 0.09; z-score, replicate C: -0.11

What is on record for CACNB3?
mean z-score: -0.74; z-score, replicate A: -0.89; z-score, replicate B: -1.16; z-score, replicate C: -0.18

For PHF12, what does the deposit list?
mean z-score: 0.81; z-score, replicate A: 1.07; z-score, replicate B: 0.61; z-score, replicate C: 0.77

Which result is listed for TMEM182?
mean z-score: -0.35; z-score, replicate A: -0.18; z-score, replicate B: -0.46; z-score, replicate C: -0.39

What is on record for TAMM41?
mean z-score: -0.55; z-score, replicate A: -0.59; z-score, replicate B: -0.48; z-score, replicate C: -0.57

What is on record for DMRTC1?
mean z-score: -0.42; z-score, replicate A: -0.51; z-score, replicate B: -0.5; z-score, replicate C: -0.26

Only “z-score, replicate A” (2 entries from above):
PPP1CC	-0.42
ZDHHC11	0.07

More results follow.
For TXNL4A, what was measured?
mean z-score: 0.9; z-score, replicate A: 1.08; z-score, replicate B: 0.84; z-score, replicate C: 0.79

For TEP1, what was measured?
mean z-score: 2.09 (active); z-score, replicate A: 2.08; z-score, replicate B: 2.07; z-score, replicate C: 2.13

How did the screen score INO80D?
mean z-score: 0.98; z-score, replicate A: 0.68; z-score, replicate B: 1; z-score, replicate C: 1.25

How did the screen score LOC401098 (retired record)?
mean z-score: -1.98; z-score, replicate A: -1.7; z-score, replicate B: -2.19; z-score, replicate C: -2.04

With EXD1, what does the deposit list?
mean z-score: 0.17; z-score, replicate A: -0.39; z-score, replicate B: 0.45; z-score, replicate C: 0.46

For CST5, how do the results read?
mean z-score: -0.28; z-score, replicate A: 0; z-score, replicate B: -0.39; z-score, replicate C: -0.46

What did the screen give for CLCN2?
mean z-score: 1.02; z-score, replicate A: 1.03; z-score, replicate B: 0.85; z-score, replicate C: 1.17

With C1QL1, what does the deposit list?
mean z-score: -0.39; z-score, replicate A: -0.36; z-score, replicate B: -0.33; z-score, replicate C: -0.49
